Measurements reported in paper PMC6222558, “Synthesis and Evolution of Berberine Derivatives as a New Class of Antiviral Agents against Enterovirus 71 through the MEK/ERK Pathway and Autophagy” (Molecules : A Journal of Synthetic Chemistry and Natural …, 2018).

How the values were obtained:
Assay type in all cases: cell-based, enterovirus 71 (EV71)
Conditions in all cases: ratio of TC50 and IC50
[1] = test system: EV71 BrCr strain (VR-1775, genotype A); assay: CPE inhibition assay for anti-EV71, BrCr strain
Protocol: (§1) Thus, all newly synthesized BBR analogues were screened for their anti-EV71 potencies in African green monkey kidney (Vero) cells taking BBR as the positive control. EV71 strains used in the present study include different genotype strains, such as H strain (VR-1432, genotype C2), BrCr strain (VR-1775, genotype A), and JS-52 and SHZH98 (genotype C4). The potency against EV71 strains above mentioned of each tested compound was evaluated by the combination of its IC50 and selectivity index (SI) value as the important therapeutic indication.
(§2) Vero cells were purchased from the American Type Culture Collection (ATCC, […], MD, USA), and were cultured in Minimum Essential Medium (MEM) supplemented with 10% fetal bovine serum (FBS) (GIBCO, Grand Island, NY, USA) and antibiotics (100 U/mL penicillin and […] streptomycin) at 37 °C in a 5% CO2 incubator. EV71 strain SHZH98 isolated from the throat swab sample of an HFMD case occurring in 1998 in China was kindly provided by Dr. Qi Jin (Institute of Pathogen Biology, Chinese Academy of Medical Science and Peking Union Medical School, Beijing, China), and JS-52 strain was a kind gift from Dr. Xiangzhong Ye (Beijing Wantai Biological Pharmacy Enterprise Co., Ltd., Beijing, China). The EV71 BrCr and H strains were purchased from the ATCC. All of EV71 strains were passaged in Vero cells.
(§3) The anti-EV71 activities of all tested compounds were detected by the virus-induced CPE assay. Briefly, cells (3 × 10^4 cells/well) were plated into 96-well culture plates and incubated for 16 h. Then, remove the medium and infected cells with EV71 of 100 × TCID50 (50% tissue culture infective doses) in serum-free medium for 1 h at 37 °C. After that, the unbound viruses were removed and various concentrations of tested compounds were supplemented for incubation of another 72 h. […] TC50 defined as the concentration that leads to the 50% of CPE which determined by the same method in 72 h. In addition, the cells were stained the cells were colored with 0.5% crystal violet in 20% ethanol for 15 min at room temperature and the cells were imaged after rinsed with PBS.

[2] = test system: EV71 JS-52 strain (genotype C4); assay: CPE inhibition assay for anti-EV71, JS-52 strain
Protocol: as §1, §2, §3

[3] = test system: EV71 SHZH98 strain (genotype C4); assay: CPE inhibition assay for anti-EV71, SHZH98 strain
Protocol: as §1, §2, §3

[4] = test system: EV71 H strain (VR-1432, genotype C2); assay: CPE inhibition assay for anti-EV71, H strain
Protocol: as §1, §2, §3

Structure (SMILES) | BrCr Strain SI [1] | JS-52 Strain SI [2] | SHZH98 Strain SI [3] | H Strain SI [4]
COc1cc2c(cc1OC)-c1cc3ccc(OC)c(OCC(=O)C(C)(C)C)c3c[n+]1CC2 [4b, 2,3,10-Trimethoxy-9-pivalylmethylenoxy protoberberine chloride] | 2.32 | 3.05 |  | 
COc1cc2c(cc1OC)-c1cc3ccc(OC)c(OCC(=O)OCc4ccccc4)c3c[n+]1CC2 [4c, 2,3,10-Trimethoxy-9-benzyloxyformylmethylenoxy protoberberine chloride] | 5.57 | 4.55 |  | 
COc1cc2c(cc1OCC(=O)OCc1ccccc1)CC[n+]1cc3c(OC)c(OC)ccc3cc1-2 [5c, 2,9,10-Trimethoxy-3-benzyloxyformylmethylenoxy protoberberine chloride] | 5.62 | 2.46 | 2.01 | 2.65
COc1cccc(C(=O)COc2cc3c(cc2OC)-c2cc4ccc(OC)c(OC)c4c[n+]2CC3)c1 [5e, 2,9,10-Trimethoxy-3-m-methoxyphenylformylmethylenoxy protoberberine chloride] | 3.01 | 3.18 | 3.03 | 2.65
COc1ccc2cc3[n+](cc2c1OCC(=O)O)CCc1cc2c(cc1-3)OCO2 [2d-a, 2,3-Methylenedioxy-9-carboxylmethylenoxy-10-methoxy protoberberine chloride] | 3.00 | 3.00 |  | 
COc1ccc2cc3[n+](cc2c1OCC(=O)c1ccc(C(F)(F)F)cc1)CCc1cc2c(cc1-3)OCO2 [2g, 2,3-Methylenedioxy-9-p-trifloromethylphenylformylmethylenoxy-10-methoxy protoberberine chloride] | 5.18 | 4.62 | 4.46 | 3.47
CCOC(=O)COc1c(OC)ccc2cc3[n+](cc12)CCc1cc2c(cc1-3)OCO2 [2a, 2,3-Methylenedioxy-9-ethyloxyformylmethylenoxy-10-methoxy protoberberine chloride] | 6.90 | 4.89 | 3.69 | 4.62
COc1cc2c(cc1OC)-c1cc3ccc(OC)c(O)c3c[n+]1CC2 [compound 3] | 1.87 | 2.50 | 1.93 | 2.10
COc1cc2c(cc1OCC(=O)c1ccc(C(F)(F)F)cc1)CC[n+]1cc3c(OC)c(OC)ccc3cc1-2 [5f, 2,9,10-Trimethoxy-3-p-trifloromethylphenylformylmethylenoxy protober berine chloride] | 5.63 | 5.36 | 2.09 | 3.54
COc1ccc2cc3[n+](cc2c1OCC(=O)c1ccc(C)cc1)CCc1cc2c(cc1-3)OCO2 [2e, 2,3-Methylenedioxy-9-p-tolylformylmethylenoxy-10-methoxy protoberberine chloride] | 6.47 | 5.40 | 5.08 | 
COc1ccc2cc3[n+](cc2c1OCC(=O)C(C)(C)C)CCc1cc2c(cc1-3)OCO2 [2c, 2,3-Methylenedioxy-9-pivalylmethylenoxy-10-methoxy protoberberine chloride] | 6.54 | 3.84 | 3.24 | 2.02
COc1cccc(C(=O)COc2c(OC)ccc3cc4[n+](cc23)CCc2cc(OC)c(OC)cc2-4)c1 [4e, 2,3,10-Trimethoxy-9-m-methoxyphenylformylmethylenoxy protoberberine chloride] | 8.36 | 7.35 | 5.18 | 10.5
COc1cc2c(cc1OC)-c1cc3ccc(OC)c(OC(=O)OCc4ccccc4)c3c[n+]1CC2 [4g, 2,3,10-Trimethoxy-9-benzyloxyformyloxy protoberberine chloride] |  | 2.72 |  | 
COc1ccc2cc3[n+](cc2c1O)CCc1cc2c(cc1-3)OCO2 [compound 1] | 2.41 | 3.00 | 2.62 | 2.31
CCOC(=O)Oc1c(OC)ccc2cc3[n+](cc12)CCc1cc2c(cc1-3)OCO2 [2i, 2,3-Methylenedioxy-9-ethyloxyformyloxy-10-methoxy protoberberine chloride] | 4.97 | 3.83 | 3.65 | 5.37
COc1cc2c(cc1OC(=O)OCc1ccccc1)CC[n+]1cc3c(OC)c(OC)ccc3cc1-2 [5g, 2,9,10-Trimethoxy-3-benzyloxyformyloxy protoberberine chloride] | 3.19 | 5.16 | 3.05 | 1.85
COc1cccc(C(=O)COc2c(OC)ccc3cc4[n+](cc23)CCc2cc3c(cc2-4)OCO3)c1 [2f, 2,3-Methylenedioxy-9-m-methoxyphenylformylmethylenoxy-10-methoxy protoberberine chloride] | 4.17 | 5.74 | 4.97 | 
COc1cc2c(cc1OC)-c1cc3ccc(OC)c(OCC(=O)c4ccc(C(F)(F)F)cc4)c3c[n+]1CC2 [4f, 2,3,10-Trimethoxy-9-p-trifloromethylphenylformylmethylenoxy protoberberine chloride] | 4.64 | 5.65 | 3.73 | 3.73
CCOC(=O)COc1c(OC)ccc2cc3[n+](cc12)CCc1cc(OC)c(OC)cc1-3 [4a, 2,3,10-Trimethoxy-9-ethyloxyformylmethylenoxy protoberberine chloride] |  |  |  | 3.01
COc1cc2c(cc1O)CC[n+]1cc3c(OC)c(OC)ccc3cc1-2 [JTH, jatrorrhizine, reference compound] |  | 1.73 | 1.73 | 
COc1ccc2cc3[n+](cc2c1OC)CCc1cc2c(cc1-3)OCO2 [BBR, berberine] | 15.6 | 10.5 | 5.22 | 6.93
COc1ccc2cc3[n+](cc2c1OC(=O)OCc1ccccc1)CCc1cc2c(cc1-3)OCO2 [2h, 2,3-Methylenedioxy-9-benzyloxyformyloxy-10-methoxy protoberberine chloride] | 2.59 |  |  | 
COc1cc2c(cc1OCC(=O)c1ccc(C)cc1)CC[n+]1cc3c(OC)c(OC)ccc3cc1-2 [5d, 2,9,10-Trimethoxy-3-p-methylphenylformylmethylenoxy protoberberine chloride] |  | 4.55 | 3.41 | 
COc1cc2c(cc1OC)-c1cc3ccc(OC)c(OCC(=O)c4ccc(C)cc4)c3c[n+]1CC2 [4d, 2,3,10-Trimethoxy-9-p-tolylformylmethylenoxy protoberberine chloride] | 1.13 | 1.13 |  | 
COc1ccc2cc3[n+](cc2c1OCC(=O)OCC(C)C)CCc1cc2c(cc1-3)OCO2 [2b, 2,3-Methylenedioxy-9-isobutyloxyformylmethylenoxy-10-methoxy protoberberine chloride] | 10.9 | 3.89 | 4.08 | 
CCOC(=O)COc1cc2c(cc1OC)-c1cc3ccc(OC)c(OC)c3c[n+]1CC2 [5a, 2,9,10-Trimethoxy-3-ethyloxyformylmethylenoxy protoberberine chloride] | 2.01 | 2.29 | 1.74 | 1.93
COc1ccc2cc3[n+](cc2c1OCC(=O)OCc1ccccc1)CCc1cc2c(cc1-3)OCO2 [2d, 2,3-Methylenedioxy-9-benzyloxyformylmethylenoxy-10-methoxyprotoberberine chloride] | 9.72 | 11.6 | 5.58 | 6.7
COc1cc2c(cc1OCC(=O)C(C)(C)C)CC[n+]1cc3c(OC)c(OC)ccc3cc1-2 [5b, 2,9,10-Trimethoxy-3-pivalylmethylenoxy protoberberine chloride] | 2.44 | 2.44 | 1.20 | 2.02
